# Share of PSTVd stem 26 variants by leaf site

The measurements come from Wu et al. 2024 (doi:10.1371/journal.ppat.1012142).

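Three N. benthamiana plants were inoculated with the whole mutant pool. Samples came from the inoculated region at 5 days, the leaf margin at 10 and upper systemic leaves at 12.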

PSTVd intermediate strain, stem 26: wild type AGGGUACCCU, pool pattern AGGGUNNCNN; upper and lower strand joined, each 5' to 3', the first 5 letters being the upper strand.

Values are reads per thousand in the sample; higher means more abundant, 0 means not found.
Each value is the mean of three plants.
"Pool" is the share in the plasmid pool used as inoculum, on the same scale.
The inoculated region was read from the minus strand, the other sites from the plus strand.
IR is the inoculated region, LM the leaf margin, Sys the systemic leaves.
The authors trace changes outside the varied positions to PCR and sequencing errors or to mutation in the plant; presence does not show that a variant is infectious alone.

sequence | pool | IR | LM | Sys
AGGGUGCGCA | 0.0493 | 0.0166 | 0 | 0
AGGGUGGCAU | 3.91 | 1.30 | 0.00992 | 0.0158
AGGGUCCUCA | 1.35 | 0.477 | 0 | 0.00623
AGGGUUGCCU | 4.18 | 2.15 | 0.00992 | 0.0103
AGGGUAACUU | 5.38 | 2.99 | 1.66 | 0.690
AGGGUAUCCG | 3.09 | 0.867 | 0 | 0
AGGGUGACUC | 2.81 | 3.39 | 2.66 | 1.53
AGGGUGCCAC | 2.88 | 2.06 | 0.552 | 0
AGGGUUCCCA | 3.91 | 1.69 | 0 | 0.00475
AGGGUUGCCC | 3.13 | 0.831 | 0 | 0
AGGGUCGCGG | 4.21 | 1.55 | 0.00742 | 0.00475
AGGGUACCAA | 2.50 | 0.950 | 0.0657 | 0.0535
AGGGUGCCUU | 3.04 | 2.16 | 0.669 | 0.601
AGGGUCACAG | 3.32 | 0.837 | 0 | 0
AGGGUCCCGU | 2.71 | 0.793 | 0 | 0
AGGGUCUCCA | 5.44 | 2.30 | 0.00871 | 0.570
AGGGUGCGCG | 0.0329 | 0 | 0 | 0
AGGGUAACUA | 4.26 | 2.79 | 0.291 | 0.00475
AGGGUCUCAU | 3.65 | 1.38 | 0.0173 | 0
AGGGUGACGA | 2.76 | 0.849 | 0.0148 | 0
AGGGUACACG | 0.0329 | 0.0263 | 0.00992 | 0
AGGGUAGCAC | 2.83 | 0.680 | 0.0173 | 0
AGGGUACCCA | 7.90 | 6.16 | 2.58 | 0.202
AGGUUCGCCC | 1.66 | 0.786 | 0.00992 | 0.00551
AGGGUGCACC | 0.0329 | 0.00875 | 0 | 0
AGGGUACCCC | 4.38 | 34.2 | 21.8 | 16.2
AGGGUCAUCA | 0.0493 | 0.00788 | 0 | 0
AGGGUCGCAU | 4.00 | 1.60 | 0.0198 | 0.0110
AGGGUCACAA | 3.14 | 1.39 | 0.0248 | 0
AGGGUCUGCC | 0.461 | 1.82 | 0.745 | 0
AGGGUCCCCC | 2.91 | 0.676 | 0.00992 | 0
AGGGUGACCA | 2.66 | 0.932 | 0 | 0
AGGGUGACAG | 3.06 | 0.827 | 0 | 0
AGGGUAACGG | 2.85 | 0.788 | 0.00871 | 0.00551
AGGGUUCCUC | 4.36 | 3.11 | 0.673 | 0.341
AGGGUCAUCG | 0.0329 | 0 | 0 | 0
AGGGUUACGU | 4.70 | 2.47 | 0 | 0
AGGGUCUCAA | 2.98 | 0.627 | 0 | 0
AGGGUACCUA | 3.91 | 1.23 | 0.0173 | 0
AGGGUCCCAG | 2.91 | 0.752 | 0.00992 | 0
AGGGUAUCGG | 3.03 | 1.12 | 0 | 0
AGGGUCGCCU | 2.76 | 0.972 | 0.0435 | 0
AGGGUGAACG | 0.0329 | 0.0143 | 0 | 0
AGGGUGUCAC | 3.64 | 2.69 | 1.30 | 0.669
AGGGUCCCCA | 2.91 | 0.824 | 0.0372 | 0.00551
AGGGUGCCGC | 3.26 | 2.75 | 0.781 | 0.336
AGGGUGACAA | 2.83 | 0.874 | 0.00742 | 0
AGGGUGCACG | 0.0329 | 0 | 0 | 0
AGGGUAGCAU | 3.62 | 1.47 | 0.00992 | 0
AGGGUUCCGG | 2.85 | 0.561 | 0 | 0
AGGGUGCCAU | 2.78 | 0.783 | 0.0260 | 0
AGGGUCACUG | 3.91 | 1.23 | 0.00742 | 0
AGGGUAGCGA | 3.60 | 1.43 | 0.00871 | 0.0110
AGGGUAGCUU | 2.99 | 0.853 | 0 | 0
AGGGUGGCUC | 3.08 | 2.17 | 1.23 | 0.618
AGGGUCAGCC | 1.32 | 1.09 | 0.00992 | 0.00551
AGUGUUCCAC | 0.0329 | 0 | 0 | 0
AGGGUCUGAC | 0.0329 | 0 | 0 | 0.603

Extract of 3 entries:

* AGGGUGACAA (pool 2.83): IR 0.874; LM 0.00742; Sys 0
* AGGGUCACAG (pool 3.32): IR 0.837; LM 0; Sys 0
* AGGGUCCCGU (pool 2.71): IR 0.793; LM 0; Sys 0

With 23,251-70,159 reads a sample, very low values are single reads.
Wild type was 44.9 per thousand in the pool and the most common sequence in every sample (inoculated region 297, 323, 447; leaf margin 793, 829, 846; systemic leaves 974, 853, 877).